Compound potency records, mixed from different reports. Data source: NIAID ChemDB in PubChem.

Common to all: tests in culture; agent: Candida albicans

Rows are shuffled and stem from different studies. An empty or dashed field is not shown. A number after MIC or MFC names an inhibition level or a share of isolates.

structure	strain	changes	method	endpoint	value
Cc1c(N2CCCC(CF)C2)c(F)cn2c(=O)c(C(=O)O)cc(C3CC3)c12	CCH442			MIC	>100 µg/mL
CN1CCC2=C(CCCC2CCc2ccc(F)cc2)C1	2381E			MIC	16 µg/mL
CCc1c(N2CCC(N)C2)c(F)cn2c(=O)c(C(=O)O)cc(C3CC3)c12.Cl	CCH442			MIC	>100 µg/mL
COc1cc(C[C@H](C)[C@H](C)Cc2ccc(O)c(O)c2)ccc1O	CCC 129-2000		broth dilution	MIC100	62.5 µg/mL
Cc1c(N2CCCC(O)C2)c(F)cn2c(=O)c(C(=O)O)cc(C3CC3)c12	CCH442			MIC	>100 µg/mL
CN1CCC2=C(CCCC2CCc2cccc(Cl)c2)C1	2005E			MIC	8 µg/mL
O=C(Cc1ccccc1NC(=O)C(F)(F)F)NCCc1ccc2c(c1)OCO2	Clinical isolate	Fluconazole-resistant	broth dilution	MIC80	>64 µg/mL
COc1ccc(CCC2CCCc3cnccc32)cc1OC	C316			MIC	>125 µg/mL
CC1=C(N2CCC3C(N)CCCC3C2)C(F)=CN2C(=O)C(C(=O)O)=CC(C3CC3)C12	CCH442			MIC	<100 µg/mL
CN1CCC2=C(CCCC2Cc2ccccc2)C1	C316			MIC	31 µg/mL
CNCC1CN(c2c(F)cn3c(=O)c(C(=O)O)cc(C4CC4)c3c2C)CCO1.Cl	CCH442			MIC	>100 µg/mL
C[C@@H](c1nc(-c2ccc(C#N)cc2)cs1)[C@](O)(Cn1cnnc1)c1ccc(F)cc1F	Isogenic isolate 6 MDR1 (25X)			MIC	0.015 µg/mL
Cc1c(N2CCC[C@H](N)C2)c(F)cn2c(=O)c(C(=O)O)cc(C3CC3)c12	CCH442			MIC	>100 µg/mL
Cc1c(N2CC(CN(C)C)CC3CCCC32)c(F)cn2c(=O)c(C(=O)O)cc(C3CC3)c12.Cl	CCH442			MIC	100 µg/mL
CC1=[N+](Cc2ccc(C(C)(C)C)cc2)CCc2cc3c(cc21)OCO3.[Br-]	Clinical isolate	Fluconazole-resistant	broth dilution	MIC80	>64 µg/mL
CC(=O)N[C@H]1CCN(c2c(F)cn3c(=O)c(C(=O)O)cc(C4CC4)c3c2C)C1	CCH442			MIC	>100 µg/mL
CCCC(N)C1CCN(c2c(F)cn3c(=O)c(C(=O)O)cc(C4CC4)c3c2C)C1.Cl	CCH442			MIC	50 µg/mL
Cc1c(N2C[C@@H]3C[C@H]2CN3)c(F)cn2c(=O)c(C(=O)O)cc(C3CC3)c12	CCH442			MIC	0.2 µg/mL
Brc1ccc(C[N+]2(Cc3ccc(Br)cc3)CCc3cc4c(cc3C2)OCO4)cc1.[Br-]	Clinical isolate	Fluconazole-resistant	broth dilution	MIC80	>64 µg/mL
Cc1c(N2CCN(c3ccccn3)CC2)c(F)cn2c(=O)c(C(=O)O)cc(C3CC3)c12	CCH442			MIC	>100 µg/mL
C[C@@H]1C[C@@H]([C@H](O)CC2CC(=O)NC(=O)C2)C(=O)[C@@H](C)C1	Isolate 3			MIC	0.27 µM
Cc1c(N2CCC[C@H]2CO)c(F)cn2c(=O)c(C(=O)O)cc(C3CC3)c12	CCH442			MIC	>100 µg/mL
C1=[N+](Cc2ccccc2)CCc2cc3c(cc21)OCO3.[Br-]	Clinical isolate	Fluconazole-resistant	broth dilution	MIC80	>64 µg/mL
CC1=C(N2CC(N)C3(CCC3)C2)C(F)=CN2C(=O)C(C(=O)O)=CC(C3CC3)C12	CCH442			MIC	>100 µg/mL
Cc1c(NCCN)c(F)cn2c(=O)c(C(=O)O)cc(C3CC3)c12.Cl	CCH442			MIC	>100 µg/mL
Cc1c(N2CCC(n3ccnn3)C2)c(F)cn2c(=O)c(C(=O)O)cc(C3CC3)c12	CCH442			MIC	0.39 µg/mL
OC(Cn1cncn1)(Cn1cncn1)c1ccc(F)cc1F	YL 363		broth dilution	MIC	>512 µg/mL

Again, the opening 4 rows:

structure	strain	changes	method	endpoint	value
Cc1c(N2CCCC(CF)C2)c(F)cn2c(=O)c(C(=O)O)cc(C3CC3)c12	CCH442			MIC	>100 µg/mL
CN1CCC2=C(CCCC2CCc2ccc(F)cc2)C1	2381E			MIC	16 µg/mL
CCc1c(N2CCC(N)C2)c(F)cn2c(=O)c(C(=O)O)cc(C3CC3)c12.Cl	CCH442			MIC	>100 µg/mL
COc1cc(C[C@H](C)[C@H](C)Cc2ccc(O)c(O)c2)ccc1O	CCC 129-2000		broth dilution	MIC100	62.5 µg/mL